Compound potency records, mixed from different reports. Data source: NIAID ChemDB in PubChem.

All rows: enzyme or target tests

Fold resistance has wild type as its base.

smiles	species	strain or isolate	mutations	target	read by	endpoint	result
CC(C)(C)c1ccc(-n2nnnc2SCC(=O)Nc2ccc(C(=O)Nc3ccccc3O)cc2Cl)c(Cl)c1	HIV-1	WT	-	Reverse transcriptase	PicoGreen / fluorescence	IC50	<1 µM
CCOC(=O)NCCCCC(C)(C)CN(C[C@@H](O)[C@H](Cc1ccccc1)NC(=O)O[C@@H]1CO[C@@H]2OCC[C@@H]21)S(=O)(=O)c1ccc(N)cc1	HIV-1	-	-	Protease	fluorescence	Ki	<0.001 µM
O=C1c2c(O)c(=O)cc(CO)n2CCN1Cc1ccc(Cl)c(Cl)c1	HIV-1	-	-	Integrase	ELISA	IC50	0.01–0.1 µM
CCCNC(=O)NCCCC(C)(C)CN(C[C@@H](O)[C@H](Cc1ccccc1)NC(=O)O[C@H]1CO[C@H]2OCC[C@H]21)S(=O)(=O)c1ccc2c(c1)OCO2	HIV-1	-	-	Protease	fluorescence	Ki	<0.001 µM
CN(C)CCCNC(=O)C(C)(C)C#Cc1ccc(NC(=O)CSc2nnnn2-c2ccc(CC3CC3)cc2Cl)c(Cl)c1	HIV-1	-	RT-K103 Y181C	Reverse transcriptase	PicoGreen / fluorescence	IC50	<1 µM
O=C(NC(Cc1ccccc1)c1ccccc1)c1cn2c(c(O)c1=O)C(=O)N(Cc1cccc(Cl)c1)CC2	HIV-1	-	-	Integrase	ELISA	IC50	0.01–0.1 µM
Cc1ccc(-n2nnnc2SCC(=O)Nc2ccc(-c3ccc(S(N)(=O)=O)cc3)cc2[N+](=O)[O-])c(Cl)c1	HIV-1	-	RT-K103 Y181C	Reverse transcriptase	PicoGreen / fluorescence	IC50	<1 µM
CC(C)(CCCCCNS(=O)(=O)c1ccccc1)CN(C[C@@H](O)[C@H](Cc1ccccc1)NC(=O)O[C@H]1CO[C@H]2OCC[C@H]21)S(=O)(=O)c1ccc2c(c1)OCO2	HIV-1	-	-	Protease	fluorescence	Ki	<0.001 µM
CC(C)(C#Cc1ccc(NC(=O)CSc2nnnn2-c2cc(C(C)(C)C)ccc2Cl)c(Cl)c1)NC(=O)c1cc[n+]([O-])cc1	HIV-1	WT	-	Reverse transcriptase	PicoGreen / fluorescence	IC50	<1 µM
CC(C)(CCCCNS(=O)(=O)c1ccc(F)cc1)CN(C[C@@H](O)[C@H](Cc1ccccc1)NC(=O)O[C@H]1CO[C@H]2OCC[C@H]21)S(=O)(=O)c1ccc2c(c1)OCO2	HIV-1	-	-	Protease	fluorescence	Ki	<0.001 µM
Nc1nc2c(ncn2[C@H]2CO[C@@H](COP(=O)(O)OP(=O)(O)OP(=O)(O)O)O2)c(=O)[nH]1	HIV	-	RT-K65R	Reverse transcriptase	radiometric	Ki	0.116 µM
CC(C)(CCCNC(=O)N1CCCC1)CN(C[C@@H](O)[C@H](Cc1ccccc1)NC(=O)O[C@H]1CO[C@H]2OCC[C@H]21)S(=O)(=O)c1ccc2c(c1)OCO2	HIV-1	-	-	Protease	fluorescence	Ki	<0.001 µM
CCN(CC)c1cn2ccn(Cc3cccc(Cl)c3)c(=O)c2c(O)c1=O	HIV-1	-	-	Integrase	ELISA	IC50	0.01–0.1 µM
O=C(COc1ccc(NC(=O)CSc2nnnn2-c2ccc(C3CC3)cc2Cl)c(Cl)c1)NCCc1ccccn1	HIV-1	-	RT-K103 Y181C	Reverse transcriptase	PicoGreen / fluorescence	IC50	<1 µM
O=c1c(-c2ccccn2)cn2ccn(Cc3cccc(F)c3)c(=O)c2c1O	HIV-1	-	-	Integrase	ELISA	IC50	0.01–0.1 µM
CCS(=O)(=O)NCCC(C)(C)CN(C[C@@H](O)[C@H](Cc1ccccc1)NC(=O)O[C@H]1CO[C@H]2OCC[C@H]21)S(=O)(=O)c1ccc2c(c1)OCO2	HIV-1	-	-	Protease	fluorescence	Ki	<0.001 µM
CNC(=O)c1cn2c(c(O)c1=O)C(=O)N(Cc1ccc(Cl)cc1)CC2	HIV-1	-	-	Integrase	ELISA	IC50	0.01–0.1 µM
CC(C)Oc1ccc(Cl)c(-n2nnnc2SCC(=O)Nc2ccc(C#CC(C)(C)C(=O)O)cc2Cl)c1	HIV-1	-	RT-K103 Y181C	Reverse transcriptase	PicoGreen / fluorescence	IC50	<1 µM
CCCC[C@H](NC(=O)[C@H](C)NC(=O)[C@H](CCC(=O)O)NC[C@H](Cc1ccccc1)NC(=O)[C@H](CC(C)C)NC(=O)[C@@H](NC(=O)[C@@H](N)CCCN=C(N)N)C(C)C)C(N)=O	HIV	-	PR-L90M	Protease	HPLC	IC50	<0.075 µM
COC(=O)NCCCC(C)(C)CN(C[C@@H](O)[C@H](Cc1ccccc1)NC(=O)O[C@H]1CO[C@H]2OCC[C@H]21)S(=O)(=O)c1ccc(N)cc1	HIV-1	-	-	Protease	fluorescence	Ki	<0.001 µM
CS(=O)(=O)Nc1cn2c(c(O)c1=O)C(=O)N(Cc1ccc(F)c(Cl)c1)CC2	HIV-1	-	-	Integrase	ELISA	IC50	<0.01 µM
COc1ccnc2[nH]cc(C(=O)C(=O)N3CCN(C(=O)c4ccccc4)C[C@H]3C)c12	HIV-1	LAI	GP120-M426L	gp120	ELISA	fold resistance	>91
COc1ccc(S(=O)(=O)N(C[C@@H](O)[C@H](Cc2ccccc2)NC(=O)O[C@H]2CO[C@H]3OCC[C@H]32)CC(C)(C)CCCNC(=O)N(C)C)cc1	HIV-1	-	-	Protease	fluorescence	Ki	<0.001 µM
CC(C)(C#Cc1ccc(NC(=O)CSc2nnnn2-c2ccc(C3CC3)cc2Cl)c(Cl)c1)OCCN1CCC1	HIV-1	-	RT-K103 Y181C	Reverse transcriptase	PicoGreen / fluorescence	IC50	<1 µM
CC(C)(CCNC(=O)NC(C)(C)C)CN(C[C@@H](O)[C@H](Cc1ccccc1)NC(=O)O[C@H]1CO[C@H]2OCC[C@H]21)S(=O)(=O)c1ccc2c(c1)OCO2	HIV-1	-	-	Protease	fluorescence	Ki	<0.001 µM
CC(C)c1cc(=O)c(O)c2n1CCN(Cc1ccc(Cl)c(Cl)c1)C2=O	HIV-1	-	-	Integrase	ELISA	IC50	0.01–0.1 µM
CC(C)(C)c1ccc(-n2nnnc2SCC(=O)Nc2ccc(C#CCCCO)cc2Cl)c(Cl)c1	HIV-1	WT	-	Reverse transcriptase	PicoGreen / fluorescence	IC50	<1 µM
COCC(=O)NCCCCC(C)(C)CN(C[C@@H](O)[C@H](Cc1ccccc1)NC(=O)O[C@H]1CO[C@H]2OCC[C@H]21)S(=O)(=O)c1ccc2c(c1)OCO2	HIV-1	-	-	Protease	fluorescence	Ki	<0.001 µM
O=C(CSc1nnnn1-c1cc(C(F)(F)F)ccc1Cl)Nc1ccc(-c2ccc(OCCN3CCCC3)cc2)c(F)c1Cl	HIV-1	WT	-	Reverse transcriptase	PicoGreen / fluorescence	IC50	<1 µM
CCOC(=O)NCCCCC(C)(C)CN(C[C@@H](O)[C@H](Cc1ccccc1)NC(=O)O[C@H]1CO[C@H]2OCC[C@H]21)S(=O)(=O)c1ccc(N)cc1	HIV-1	-	-	Protease	fluorescence	Ki	<0.001 µM
CC(C)(C#Cc1ccc(NC(=O)CSc2nnnn2-c2ccc(C3CC3)cc2Cl)c(Cl)c1)NC(=O)c1csnn1	HIV-1	WT	-	Reverse transcriptase	PicoGreen / fluorescence	IC50	<1 µM
CN(C)C(=O)OCCC(C)(C)CN(C[C@@H](O)[C@H](Cc1ccccc1)NC(=O)O[C@H]1CO[C@H]2OCC[C@H]21)S(=O)(=O)c1ccc2c(c1)OCO2	HIV-1	-	-	Protease	fluorescence	Ki	<0.001 µM
CC(C)(C#Cc1ccc(NC(=O)CSc2nnnn2-c2ccc3ncccc3c2Cl)c(Cl)c1)C(=O)O	HIV-1	-	RT-K103 Y181C	Reverse transcriptase	PicoGreen / fluorescence	IC50	<1 µM
O=C1c2c(O)c(=O)c(-c3nccs3)cn2CCN1Cc1ccc(Cl)c(F)c1	HIV-1	-	-	Integrase	ELISA	IC50	<0.01 µM
CC(C)=CCN1Cc2cccc3[nH]c(=S)n(c23)C[C@@H]1C	HIV	-	RT-F61L	Reverse transcriptase	nucleotide incorporation	fold resistance	0.783
C#CCCC(=O)Nc1ccc(NC(=O)CSc2nnnn2-c2ccc(C(C)(C)C)cc2Cl)c(Cl)c1	HIV-1	WT	-	Reverse transcriptase	PicoGreen / fluorescence	IC50	<1 µM

Blank or dashed fields: not listed here. Two numbers with a dash give a range or band. Rows are shuffled and stem from different studies. ICn: concentration for n% inhibition.